According to PMC8765781, “A platform of assays for the discovery of anti-Zika small-molecules with activity in a 3D-bioprinted outer-blood-retina model” (PLoS ONE, 2022):

Columns and labels:
HepG2 cells = assay: HepG2 cell viability (cytotoxicity) counterscreen, CellTiter-Glo; settings: read-out: Cell toxicity counterscreen HepG2, CC50; 48 hr, no virus; unit inferred
Vero cells = settings: read-out: Cell toxicity counterscreen Vero, CC50; 48 hr, no virus; unit inferred

CC1=CC2OC3CC(O)[C@](C)([C@@]2(C)C(O)C1=O)[C@]31CO1 (some centres unmarked)
CC50 (HepG2 cells): > 30 µM | CC50 (Vero cells): > 50 µM
